One may read the Kd as the constant that tells how readily two partners part at equilibrium. Read a high Kd as lower affinity. The koff is a measure of how fast the partners let go of each other.

Assay [1] concerns the target SARS-CoV-2 NTD (1–290), strain USA/IL1/2020, biotinylated (SARS-CoV-2) (UniProt P0DTC2). The experiment in a line: BLI. (In general: Biolayer interferometry detects binding as a change in optical thickness at a sensor tip.)
Assay [2] addresses SARS-CoV-2 RBD (318–514), strain USA/IL1/2020, biotinylated (SARS-CoV-2) (UniProt P0DTC2). The experiment in a line: BLI.

Consider “WRAIR-2039 (human IgG1) (from UniProt P01857)”, for which, in assay [1], the Kd was less than 1 pM and the koff is less than 1e-07 s⁻¹.
In the case of “WRAIR-2151 (human IgG1) (from UniProt P01857)”, in assay [2], the Kd was less than 0.001 nM and the koff was less than 1e-07 s⁻¹.
With “WRAIR-2004 (human IgG1) (from UniProt P01857)”, in assay [1], the Kd is less than 1 pM and the off-rate (koff) was less than 1e-07 s⁻¹.
“WRAIR-2173 (human IgG1) (from UniProt P01857)”: in assay [2], the Kd was found to be 0.0212 nM and the koff was 5.23e-06 s⁻¹.
In assay [2], “WRAIR-2063 (human IgG1) (from UniProt P01857)” came in with a Kd of less than 0.001 nM and a koff of less than 1e-07 s⁻¹.
As to “WRAIR-2025 (human IgG1) (from UniProt P01857)”, in assay [1], the Kd is less than 1 pM and the koff was less than 1e-07 s⁻¹.
In assay [2], “WRAIR-2123 (human IgG1) (from UniProt P01857)” showed a Kd of 0.0109 nM and a koff of 2.98e-06 s⁻¹.
Taken in the same sequence, the figures for “WRAIR-2165 (human IgG1) (from UniProt P01857)” were 0.0109 nM and 2.16e-06 s⁻¹.
